Pooled drug test results. Numbers come from NIAID ChemDB, via PubChem.

Common to all: growth or infection tests

Lines come from different laboratories, so protocols vary. Inhibition is in % at the dose shown (toxicity tests: loss of growth or viability). a–b is a range or a potency band. An empty or dashed field is not shown. MIC50, MIC90 and the like: level of inhibition, or share of isolates inhibited.

SMILES,strain,setting,endpoint,method,dose,agent,value
CCCCCC/C1=C\c2csc(n2)[C@H](C)[C@@H](O)C[C@H](O)/C=C/C=C\C[C@H](O)[C@H]([C@H](O)[C@@H](C)/C=C(C)/C=C(\C)C(C)OC)OC1=O,,,MIC,visual reading,,Mycobacterium luteus,16 µg/mL
C[C@H]1COC2(CCN(c3nc(=O)c4cc(C(F)(F)F)cc(C(=O)O)c4s3)CC2)O1,ATCC 15483,,MIC99,resazurin,,Mycobacterium vaccae,>100 µg/mL
O=C(O)C#Cc1ccccc1,1173P2,24 h,MIC,resazurin,,Mycobacterium bovis BCG,62.5 µg/mL
CN[C@@H]1[C@@H](O[C@H]2O[C@H](CO)[C@@H](N)[C@H](O)[C@H]2O)OC2C[C@@H](N)[C@@H](O[C@H]3[C@H](OCC(O)CN)[C@@H](O)[C@H](N)C[C@@H]3N)OC2[C@@H]1O,L948,,MIC,broth dilution,,Mycobacterium abscessus,0.5–1 µg/mL
CC(C)N1CCN(c2cc3c(cc2F)c(=O)c(C(=O)O)cn3C2CC2)CC1,KD1987 (GYRA A91V),,MIC99,,,Mycobacterium smegmatis,1.5 µg/mL
Nc1nc(N)c2c(n1)NC(c1ccc(C(F)(F)F)cc1)CC(c1ccc3c(c1)OCO3)=N2,MNT1407,clinical isolate,MIC,MTT / broth dilution / absorbance,,Mycobacterium chelonae,32 µg/mL
COc1c(N2CC(C)NC(C)C2)c(F)cc2c(=O)c(C(=O)O)cn(C3CC3)c12,KD1998 (GYRA D95N),,MIC99,,,Mycobacterium smegmatis,0.93 µg/mL
CN[C@@H]1[C@@H](O[C@H]2O[C@H](CO)[C@@H](N)[C@H](O)[C@H]2O)OC2C[C@@H](N)[C@@H](O[C@H]3[C@H](OC4O[C@H](CNC=O)[C@@H](O)[C@H]4O)[C@@H](O)[C@H](N)C[C@@H]3N)OC2[C@@H]1O,L948,,MIC,broth dilution,,Mycobacterium abscessus,16 µg/mL
COc1c(N2CCN(C(C)C)CC2)c(F)cc2c(=O)c(C(=O)O)cn(C3CC3)c12,KD1163 (GRYA+),,MIC99,,,Mycobacterium smegmatis,0.14 µg/mL
C#CC(O)CCCCC,1173P2,24 h,MIC,resazurin,,Mycobacterium bovis BCG,125 µg/mL
CC1CN(c2cc3c(cc2F)c(=O)c(C(=O)O)cn3C2CC2)CCN1,BCG-CX1 (D94N),,MIC,,,Mycobacterium bovis,5.6 µg/mL
CCC1CN(c2c(F)cc3c(=O)c(C(=O)O)cn(C4CC4)c3c2F)CCN1,KD2008 (GYRA G89C),,MIC99,,,Mycobacterium smegmatis,0.73 µg/mL
O=c1c(O)c(-c2ccc(O)cc2)oc2cc(O)cc(O)c12,,,MIC,,,Mycobacterium phlei,50 µg/mL
CN(C)c1cc(NC(=O)CNC(C)(C)C)c(O)c2c1C[C@H]1C[C@H]3[C@H](N(C)C)C(=O)C(C(N)=O)=C(O)[C@@]3(O)C(=O)C1=C2O,AC1,,MIC,broth dilution,,Mycobacterium abscessus,1 µg/mL
CC1CNCCN1S(=O)(=O)c1cccc2cnccc12,BCG,,inhibition,,20 µg/mL,Mycobacterium bovis,60%
CC#CCCC,1173P2,48 h,MIC,resazurin,,Mycobacterium bovis BCG,31.25 µg/mL
O=C(O)c1cc(C(F)(F)F)cc2c(=O)nc(N3CCN(CC4CCCCC4)CC3)sc12,2005-0484,,MIC99,resazurin,,Mycobacterium massiliense,>100 µg/mL
C(#Cc1ccccc1)c1ccccc1,1173P2,48 h,MIC,resazurin,,Mycobacterium bovis BCG,31.25 µg/mL
COc1c(O)cc2oc(-c3ccccc3)c(OC)c(=O)c2c1O,,,MIC,,,Mycobacterium phlei,15 µg/mL
COc1c(N2CCNCC2)c(F)cc2c(=O)c(C(=O)O)cn(C3CC3)c12,KD1991 (GYRA D95Y),,MIC99,,,Mycobacterium smegmatis,0.61 µg/mL
Nc1nc(N)c2c(n1)NC(c1ccc3c(c1)OCO3)CC(c1ccccc1)=N2,MNT1100,clinical isolate,MIC,MTT / broth dilution / absorbance,,Mycobacterium szulgai,>32 µg/mL
C/C=C(C)/C=C(\C)[C@@H](O)[C@H](C)[C@@H](O)[C@H](O)[C@@H]1C/C=C\C=C\[C@@H](O)C[C@H](O)[C@@H](C)c2nc(cs2)/C=C(\CCCCCC)C(=O)O1,,,MIC,visual reading,,Mycobacterium luteus,8 µg/mL
CC(C)N1CCN(c2c(F)cc3c(=O)c(C(=O)O)cn(C4CC4)c3c2F)CC1,KD2008 (GYRA G89C),,MIC99,,,Mycobacterium smegmatis,9.6 µg/mL
Nc1nc(N)c2c(n1)NC(c1ccc(F)cc1)CC(c1ccc3c(c1)OCO3)=N2,MNT1407,clinical isolate,MIC,MTT / broth dilution / absorbance,,Mycobacterium chelonae,>32 µg/mL
CN[C@@H]1[C@@H](O[C@H]2O[C@H](CO)[C@@H](N)[C@H](O)[C@H]2O)OC2C[C@@H](N)[C@@H](O[C@H]3[C@H](O)[C@@H](O)[C@H](NC(=O)C(O)CCN)C[C@@H]3N)OC2[C@@H]1O,L948,,MIC,broth dilution,,Mycobacterium abscessus,2 µg/mL
O=C(O)c1cn(C2CC2)c2c(F)c(N3CCNCC3)c(F)cc2c1=O,KD2003 (GYRA D95G),,MIC99,,,Mycobacterium smegmatis,1.3 µg/mL
CN[C@@H]1[C@@H](O[C@H]2O[C@H](CO)[C@@H](N)[C@H](O)[C@H]2O)OC2C[C@@H](N)[C@@H](O[C@H]3[C@@H](F)[C@@H](O)[C@H](N)C[C@@H]3N)OC2[C@@H]1O,L948,,MIC,broth dilution,,Mycobacterium abscessus,1 µg/mL
CCN1CCN(c2c(F)cc3c(=O)c(C(=O)O)cn(C4CC4)c3c2OC)CC1,BCG-CX1 (D94N),,MIC,,,Mycobacterium bovis,1.2 µg/mL
CN[C@@H]1[C@@H](O[C@H]2O[C@H](CO)[C@@H](N)[C@H](O)[C@H]2O)OC2C[C@@H](N)[C@@H](O[C@H]3[C@@H](O)[C@@H](O)[C@H](N)C[C@@H]3N)OC2[C@@H]1O,L948,,MIC,broth dilution,,Mycobacterium abscessus,0.5 µg/mL
C/C=C(C)/C=C(\C)[C@@H](O)[C@H](O)[C@H]1OC(=O)/C=C/c2csc(n2)[C@H](C)[C@@H](O)C[C@H](O)/C=C/C=C\C[C@H](O)[C@H]1O,,,MIC,visual reading,,Mycobacterium luteus,32 µg/mL
C[C@@H]1O[C@@H](OC[C@H]2O[C@@H](Oc3c(-c4ccc(O)c(O)c4)oc4cc(O)cc(O)c4c3=O)[C@H](O)[C@@H](O)[C@@H]2O)[C@H](O)[C@H](O)[C@H]1O,,,MIC,,,Mycobacterium phlei,>100 µg/mL
OCC#CCO,1173P2,48 h,MIC,resazurin,,Mycobacterium bovis BCG,125 µg/mL
C=C1C(=O)N[C@@H](CC(C)C)C(=O)N[C@H](CC(C)C)C(=O)N[C@H](C(=O)O)[C@H](C)C(=O)N[C@H](CCCN=C(N)N)C(=O)N[C@@H](/C=C/C(C)=C/[C@H](C)[C@H](Cc2ccccc2)OC)[C@@H](C)C(=O)N[C@@H](C(=O)O)CCC(=O)N1C,,,MIC,resazurin,,Mycobacterium chelonae,0.84 µM
CCN1CCN(c2c(F)cc3c(=O)c(C(=O)O)cn(C4CC4)c3c2OC)CC1,KD1163 (GRYA+),,MIC99,,,Mycobacterium smegmatis,0.033 µg/mL
CC1CN(c2c(F)cc3c(=O)c(C(=O)O)cn(C4CC4)c3c2Br)CCN1,BCG-CX2 (A90V D94N),,MIC,,,Mycobacterium bovis,2.1 µg/mL
COc1c(-c2ccccc2)oc2cc3c(c(O)c2c1=O)OCO3,,,MIC,,,Mycobacterium phlei,75 µg/mL
C#CC(=O)OC,1173P2,48 h,MIC,resazurin,,Mycobacterium bovis BCG,7.75 µg/mL
CN[C@@H]1[C@@H](O[C@H]2O[C@H](CO)[C@@H](N)[C@H](O)[C@H]2O)OC2C[C@@H](N)[C@@H](O[C@H]3[C@H](OCCCN)[C@@H](O)[C@H](N)C[C@@H]3N)OC2[C@@H]1O,L948,,MIC,broth dilution,,Mycobacterium abscessus,1 µg/mL
Nc1nc(N)c2c(n1)NC(c1ccccc1)CC(c1ccc3c(c1)OCO3)=N2,MNT1193,clinical isolate,MIC,MTT / broth dilution / absorbance,,Mycobacterium scrofulaceum,32 µg/mL

A second listing of 5 rows from above:

SMILES,strain,setting,endpoint,method,dose,agent,value
COc1c(N2CC(C)NC(C)C2)c(F)cc2c(=O)c(C(=O)O)cn(C3CC3)c12,KD1998 (GYRA D95N),,MIC99,,,Mycobacterium smegmatis,0.93 µg/mL
CC1CN(c2cc3c(cc2F)c(=O)c(C(=O)O)cn3C2CC2)CCN1,BCG-CX1 (D94N),,MIC,,,Mycobacterium bovis,5.6 µg/mL
CN[C@@H]1[C@@H](O[C@H]2O[C@H](CO)[C@@H](N)[C@H](O)[C@H]2O)OC2C[C@@H](N)[C@@H](O[C@H]3[C@@H](O)[C@@H](O)[C@H](N)C[C@@H]3N)OC2[C@@H]1O,L948,,MIC,broth dilution,,Mycobacterium abscessus,0.5 µg/mL
C#CC(O)CCCCC,1173P2,24 h,MIC,resazurin,,Mycobacterium bovis BCG,125 µg/mL
C=C1C(=O)N[C@@H](CC(C)C)C(=O)N[C@H](CC(C)C)C(=O)N[C@H](C(=O)O)[C@H](C)C(=O)N[C@H](CCCN=C(N)N)C(=O)N[C@@H](/C=C/C(C)=C/[C@H](C)[C@H](Cc2ccccc2)OC)[C@@H](C)C(=O)N[C@@H](C(=O)O)CCC(=O)N1C,,,MIC,resazurin,,Mycobacterium chelonae,0.84 µM